A mixed list of measured activities; the numbers were collected in NIAID ChemDB.

Shared fields: growth or infection tests; agent: Pneumocystis carinii; measure: EC50

Conditions beyond the fields shown may differ between rows.

CC(=O)N1CCN(c2ccc(OC[C@H]3CO[C@](Cn4ccnc4)(c4ccc(Cl)cc4Cl)O3)cc2)CC1 ; cells: WI-38 ; conditions: 10 d ; result: <10 µg/mL
CCCCCCN=C(N)c1ccc(N2CCN(c3ccc(C(N)=NCCCCCC)cc3)CC2)cc1 ; method: ATP ; result: 0.004 µg/mL
OC(Cn1cncn1)(Cn1cncn1)c1ccc(F)cc1F ; cells: WI-38 ; conditions: 10 d ; result: >10 µg/mL
NC(=NCCCO)c1ccc(N2CCCN(c3ccc(C(N)=NCCCO)cc3)CC2)cc1 ; result: >1 µM
CCCCCN=C(N)c1ccc(N2CCN(c3ccc(C(N)=NCCCCC)cc3)CC2)cc1.Cl.Cl ; cells: A549 ; method: ATP ; result: 0.001 µg/mL
c1cc(N2CCCN(c3ccc(C4=NCCCN4)cc3)CC2)ccc1C1=NCCCN1 ; result: <1 µM
CC(=O)N(O)CCCCCNC(=O)CCC(=O)N(O)CCCCCNC(=O)CCC(=O)N(O)CCCCCN ; cells: Human fibroblasts ; conditions: 7 d ; result: <30 µM
Cl.Cl.NC(=NC1CCCCCCC1)c1ccc(N2CCN(c3ccc(C(N)=NC4CCCCCCC4)cc3)CC2)cc1 ; cells: A549 ; method: ATP ; result: 0.019 µg/mL
c1cc(N2CCN(c3ccc(C4OCCO4)cc3)CC2)ccc1C1OCCO1 ; method: ATP ; result: >100 µg/mL
CCc1c(O)c(=O)ccn1CCOC ; cells: Human fibroblasts ; conditions: 7 d ; result: <72 µM
c1ccc2[nH]c(-c3ccc(N4CCN(c5ccc(-c6nc7ccccc7[nH]6)cc5)CC4)cc3)nc2c1 ; method: ATP ; result: 0.711 µg/mL
COCCn1ccc(=O)c(O)c1C ; cells: Human fibroblasts ; conditions: 7 d ; result: <72 µM
N/C(=N\O)c1ccc(N2CCN(c3ccc(/C(N)=N/O)cc3)CC2)cc1 ; method: ATP ; result: 3.3 µg/mL
O=C(Cn1ccnc1[N+](=O)[O-])NCCO ; cells: WI-38 ; conditions: 10 d ; result: >10 µg/mL
O=Cc1ccc(N2CCN(c3ccc(C=O)cc3)CC2)cc1 ; method: ATP ; result: >100 µg/mL
NC(=NCC1CC1)c1ccc(N2CCCN(c3ccc(C(N)=NCC4CC4)cc3)CC2)cc1 ; result: <1 µM
CCCN=C(N)c1ccc(N2CCN(c3ccc(C(N)=NCCC)cc3)CC2)cc1 ; method: ATP ; result: 1.6 µg/mL
CN(C)c1nc(N)c(C(=O)N=C(N)N)nc1Cl ; result: >100 µM

2 of the rows above, restated:

{"compound": "c1cc(N2CCN(c3ccc(C4OCCO4)cc3)CC2)ccc1C1OCCO1", "method": "ATP", "result": ">100 µg/mL"}
{"compound": "NC(=NCC1CC1)c1ccc(N2CCCN(c3ccc(C(N)=NCC4CC4)cc3)CC2)cc1", "result": "<1 µM"}

ECn is the concentration giving n% inhibition of infection, replication or growth.